Experimental data reported in ChEMBL document CHEMBL1154750 (J Med Chem, 2010).

Molecular target: Neuraminidase (Influenza A virus, UniProt B4URF0)
Assay: Inhibition of oseltamivir-resistant Influenza Virus A/342/0 (H1N1) neuraminidase at 100 nM; call rule not given here

## CCOC(=O)C1=C[C@@H](OC(CC)CC)[C@H](NC(C)=O)[C@@H](N)C1
  IC50: Not Active
